Anti-infective test results gathered from many reports (values: NIAID ChemDB through PubChem).

Common to all: tests on isolated targets; agent: HIV-1; protein: Reverse transcriptase

ICn: concentration for n% inhibition.

{"smiles": "CCN1c2ncc(CCOc3ccc(S(=O)(=O)NC(C)=O)c4ccccc34)cc2C(=O)N(C)c2cccnc21", "changes": "RT-V106A", "read-out": "IC50", "read by": "nucleotide incorporation / radiometric", "value": ">1 µM"}
{"smiles": "CN1C(=O)c2cc(N)ccc2Oc2ncccc21", "strain or isolate": "LAV", "read-out": "IC50", "read by": "nucleotide incorporation / radiometric", "value": "10 µg/mL"}
{"smiles": "COC(=O)N1c2ccc(OC)cc2C=CC1C#N", "read-out": "IC50", "read by": "nucleotide incorporation", "value": ">50 µM"}
{"smiles": "CCN1c2ncc(CCc3cc[n+]([O-])cc3)cc2C(=O)N(C)c2ccc(Cl)nc21", "changes": "RT-Y181C", "read-out": "IC50", "read by": "nucleotide incorporation / radiometric", "value": "<1 µM"}
{"smiles": "CSCCN1C(=O)c2ccccc2Oc2nc(Cl)ccc21", "strain or isolate": "LAV", "read-out": "IC50", "read by": "nucleotide incorporation / radiometric", "value": "<10 µg/mL"}
{"smiles": "CCN1c2ncc(CCOc3ccc(CC(=O)O)c4c3CCCC4)cc2C(=O)N(C)c2cccnc21", "changes": "RT-Y188L", "read-out": "IC50", "read by": "nucleotide incorporation / radiometric", "value": ">1 µM"}
{"smiles": "FC(F)(F)c1nnc2c3ccccc3c(N3CCc4ccccc4C3)nn12", "strain or isolate": "KER2008", "read-out": "IC50", "read by": "RT activity / fluorescence", "value": "0.54 µM"}
{"smiles": "NC(=O)c1cc2c([nH]c3ccccc32)c(-c2ccc(CO)o2)n1", "read-out": "IC50", "read by": "ELISA", "value": ">65.36 µM"}
{"smiles": "Cc1nnc2c3ccccc3c(N3CCC4CCCCC4C3)nn12", "strain or isolate": "IIIB", "read-out": "IC90", "read by": "RT activity / fluorescence", "value": "31 µM"}
{"smiles": "CCN1c2ncc(CCOc3ccc(CC(=O)O)c4c3CCCC4)cc2C(=O)N(C)c2ccc(Cl)nc21", "changes": "RT-Y188L", "read-out": "IC50", "read by": "nucleotide incorporation / radiometric", "value": "0.1–1 µM"}
{"smiles": "O=[N+]([O-])c1ccc2c(c1)CN(c1nn3c(C(F)F)nnc3c3ccccc13)CC2", "strain or isolate": "98US_MSC5016", "read-out": "IC90", "read by": "RT activity / fluorescence", "value": "20.3 µM"}
{"smiles": "O=c1cc(Cc2ccccc2)nc(SCCCCO)[nH]1", "changes": "RT-Y188L", "read-out": "Ki", "value": "207 µM"}
{"smiles": "CCCOC(=O)N1c2ccc(OC)cc2C=CC1C#N", "read-out": "IC50", "read by": "nucleotide incorporation", "value": "8.1 µM"}
{"smiles": "Nc1nc2c(ncn2[C@H]2CC[C@@H](COP(=O)(O)OP(=O)(O)OP(=O)(O)O)O2)c(=O)[nH]1", "changes": "RT-Q151M", "read-out": "IC50", "read by": "nucleotide incorporation / radiometric", "value": "0.075 µM"}
{"smiles": "Cc1cn(C2CC(N=[N+]=[N-])C(COC(C(=O)O)P(=O)(O)OP(=O)(O)O)O2)c(=O)[nH]c1=O", "read-out": "IC50", "read by": "nucleotide incorporation / radiometric", "value": "109 µg/mL"}
{"smiles": "CCC(C)N1C(=O)c2ccccc2Oc2ncccc21", "strain or isolate": "LAV", "read-out": "IC50", "read by": "nucleotide incorporation / radiometric", "value": "10 µg/mL"}
{"smiles": "N#CC1C=Cc2ccccc2N1C(=O)OCCOc1ccccc1", "read-out": "IC50", "read by": "nucleotide incorporation", "value": ">50 µM"}
{"smiles": "NC(=O)c1[nH]c2ccc(Cl)cc2c1S(=O)(=O)c1ccccc1", "read-out": "Ki", "read by": "nucleotide incorporation / radiometric", "value": "0.0013 µM"}
{"smiles": "CC(C)COC(=O)N1c2ccccc2C=CC1C#N", "changes": "RT-P236L", "read-out": "IC50", "read by": "nucleotide incorporation", "value": "4.9 µM"}
{"smiles": "CC(C)(C)c1ccc(-n2nnnc2SCC(=O)Nc2ccccc2Cl)c(Br)c1", "read-out": "IC50", "read by": "fluorescence", "value": "<0.05 µM"}
{"smiles": "CCCOC(=O)N1c2ccc([N+](=O)[O-])cc2C=CC1C#N", "read-out": "IC50", "read by": "nucleotide incorporation", "value": "25.8 µM"}
{"smiles": "CC(=O)O[C@]1(C)/C=C/C[C@@H](C)/C=C/[C@@]2(C)CC[C@@H](C(C)(C)O)[C@@H]2[C@@H](O)C1", "read-out": "IC50", "read by": "nucleotide incorporation / radiometric", "value": ">40 µM"}
{"smiles": "CCOC(=O)N1c2ccccc2C=CC1C#N", "changes": "RT-P236L", "read-out": "IC50", "read by": "nucleotide incorporation", "value": "5.3 µM"}
{"smiles": "CCN1c2ncc(CCc3ccccc3)cc2C(=O)N(C)c2c1ncc(C)c2C", "changes": "RT-Y181C", "read-out": "IC50", "read by": "nucleotide incorporation / radiometric", "value": "<1 µM"}
{"smiles": "Cc1c(Cc2ccccc2)nc(NCCCCN)[nH]c1=O", "changes": "RT-L100I", "read-out": "Ki", "value": ">1000 µM"}
{"smiles": "CCC(=O)N1C(=O)c2cc(C)ccc2Oc2ncccc21", "strain or isolate": "LAV", "read-out": "IC50", "read by": "nucleotide incorporation / radiometric", "value": "~10 µg/mL"}
{"smiles": "Nc1ncnc2c1ncn2[C@@H]1O[C@H](COP([O-])(=S)OC2C(O)[C@@H](COP([O-])(=S)OC3C(O)[C@@H](CO)O[C@H]3n3cnc4c(N)ncnc43)O[C@H]2n2cnc3c(N)ncnc32)C(O)C1O", "read-out": "IC50", "value": "0.5 µM"}
{"smiles": "O=C(CSc1nnnn1-c1cccc2ccccc12)Nc1cccc(Cl)c1Cl", "read-out": "IC50", "read by": "fluorescence", "value": "0.05–0.1 µM"}
{"smiles": "Nc1ccn([C@H]2CC[C@@H](COP(=O)(O)OP(=O)(O)OP(=O)(O)O)O2)c(=O)n1", "changes": "RT-F77L", "read-out": "IC50", "read by": "nucleotide incorporation / radiometric", "value": "0.42 µM"}
{"smiles": "COC(=O)C(OCC1OC(n2cc(C)c(=O)[nH]c2=O)CC1N=[N+]=[N-])P(=O)(O)O", "read-out": "IC50", "read by": "nucleotide incorporation / radiometric", "value": ">100 µg/mL"}
{"smiles": "O=P(O)(O)OP(=O)(O)O", "changes": "RT-Q151E", "read-out": "Ki", "read by": "nucleotide incorporation / radiometric", "value": "653 µM"}
{"smiles": "Cc1cc(C)c(-n2nnnc2SCC(=O)Nc2ccc3c(c2)OCO3)c(C)c1", "read-out": "IC50", "read by": "fluorescence", "value": "<0.05 µM"}
{"smiles": "CCN1c2ncc(CCc3ccncc3)cc2C(=O)N(C)c2ccc(=O)[nH]c21", "changes": "RT-Y181C", "read-out": "IC50", "read by": "nucleotide incorporation / radiometric", "value": ">1 µM"}
{"smiles": "O=c1[nH]c(=O)n(COCc2ccccc2)c2c1CCCCC2c1ccccc1", "read-out": "IC50", "read by": "ELISA", "value": "1.51 µM"}
{"smiles": "N#CC1C=Cc2ccccc2N1C(=O)C1=CC2C=CC=CC2S1", "read-out": "IC50", "read by": "nucleotide incorporation", "value": ">50 µM"}
{"smiles": "CCN1c2ncc(CCc3cccc(NC(N)=O)c3)cc2C(=O)N(C)c2ccc(Cl)nc21", "changes": "RT-Y181C", "read-out": "IC50", "read by": "nucleotide incorporation / radiometric", "value": "<1 µM"}
{"smiles": "CCN1c2ncc(CCOc3ccc(/C=C(\\C)C(=O)O)c4ccccc34)cc2C(=O)N(C)c2ccc(C)nc21", "changes": "RT-K103N Y181C", "read-out": "IC50", "read by": "nucleotide incorporation / radiometric", "value": "0.1–1 µM"}
{"smiles": "COC(=O)C(OCC1OC(n2cc(C)c(=O)[nH]c2=O)CC1N=[N+]=[N-])P(=O)(O)OP(=O)(O)OP(=O)(O)O", "read-out": "IC50", "read by": "nucleotide incorporation / radiometric", "value": "63 µg/mL"}
{"smiles": "Nc1nc(=O)n([C@H]2CS[C@@H](COP(=O)(O)OP(=O)(O)OP(=O)(O)O)O2)cc1F", "read-out": "Ki", "value": "1.7 µM"}
{"smiles": "O=C(CSc1nnnn1-c1c(Cl)cccc1Cl)Nc1ccccc1[N+](=O)[O-]", "changes": "RT-K103N Y181C", "read-out": "IC50", "read by": "fluorescence", "value": "≥0.1 µM"}
{"smiles": "NCCCCNc1nc(Cc2ccccc2)cc(=O)[nH]1", "read-out": "Ki", "value": "70 µM"}
{"smiles": "Cc1nnc2c3ccccc3c(N3CCc4ncccc4C3)nn12", "strain or isolate": "IIIB", "read-out": "IC90", "read by": "RT activity / fluorescence", "value": "11.5 µM"}
{"smiles": "CCN1c2ncc(CCOc3ccc(C(=O)O)c4c3CCN(C(=O)OC)C4)cc2C(=O)N(C)c2cccnc21", "changes": "RT-K103N Y181C", "read-out": "IC50", "read by": "nucleotide incorporation / radiometric", "value": "0.1–1 µM"}
{"smiles": "CCOCn1c2c(c(=O)[nH]c1=O)CCCCC2c1ccccc1", "read-out": "IC50", "read by": "ELISA", "value": "101 µM"}
{"smiles": "COc1ccc2c(c1)C=CC(C#N)N2C(=O)OCC(C)C", "read-out": "IC50", "read by": "nucleotide incorporation", "value": "13.8 µM"}
{"smiles": "C=C(Cl)CN1C(=O)c2ccccc2Oc2ncccc21", "strain or isolate": "LAV", "read-out": "IC50", "read by": "nucleotide incorporation / radiometric", "value": "<10 µg/mL"}
{"smiles": "CCN1c2ncc(CCOc3ccc(CC(=O)O)c4c3CCCC4)cc2C(=O)N(C)c2ccc(F)nc21", "changes": "RT-K103N Y181C", "read-out": "IC50", "read by": "nucleotide incorporation / radiometric", "value": "0.1–1 µM"}
{"smiles": "Cc1cc(C)cc(S(=O)(=O)c2c(C(N)=O)[nH]c3ccc(F)c(F)c23)c1", "strain or isolate": "WT", "read-out": "IC50", "read by": "nucleotide incorporation / radiometric", "value": "0.0022 µM"}
{"smiles": "C=C(C)CN1C(=O)c2ccccc2Oc2ncccc21", "strain or isolate": "LAV", "read-out": "IC50", "read by": "nucleotide incorporation / radiometric", "value": "~10 µg/mL"}

For reference, 3 entries again:

{"smiles": "COc1ccc2c(c1)C=CC(C#N)N2C(=O)OCC(C)C", "read-out": "IC50", "read by": "nucleotide incorporation", "value": "13.8 µM"}
{"smiles": "CCN1c2ncc(CCOc3ccc(CC(=O)O)c4c3CCCC4)cc2C(=O)N(C)c2ccc(F)nc21", "changes": "RT-K103N Y181C", "read-out": "IC50", "read by": "nucleotide incorporation / radiometric", "value": "0.1–1 µM"}
{"smiles": "CCCOC(=O)N1c2ccc(OC)cc2C=CC1C#N", "read-out": "IC50", "read by": "nucleotide incorporation", "value": "8.1 µM"}

Neighbouring rows are from separate reports. Two numbers with a dash give a range or band.